Paper PMC9115767 (European journal of medicinal chemistry, 2021)

Conditions: human, microsomes, 1 h

In the case of `O=C(O)Cc1ccccc1Nc1c(Cl)cccc1Cl` [Diclofenac], the “Remaining (NCF = 60min)” value is reported as 96.7% and the “Remaining (T = 60min)” value is reported as 0.0%.
